Record: PubChem BioAssay AID624099 (ICCB-Longwood, 2012)

- Assay: 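Host factors E2 relies on to silence an HPV18 LCR reporter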 (primary screen)
- Cells: human C33A cervical carcinoma cells (HPV-negative) stably expressing BPV1 E2 and an HPV18 LCR luciferase reporter
- Reagent: siRNA pool against human genes, 40 nM
- Timing: 72 h
- Measurement: 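HPV18 LCR reporter light per well, converted to plate-wise z-scores that exclude control wells, and averaged over triplicate plates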
- Scale: mean z-score and z-score: higher = stronger reporter signal, weaker E2 silencing
- Active means: 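Mean z ≥ 2 together with z ≥ 2 in two or more of the three replicates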
This is a random part of about 21,000 reagents tested. 497 of all reagents (2.4%) count as active. 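Higher z means weaker E2 silencing; only reporter increases were scored, and knock-downs that hurt cell survival may mask genuine repressor factors.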 Entries without a mark were called inactive. Reagents against one gene are numbered here.

| gene | reagent no. | mean z-score | z-score, replicate A | z-score, replicate B | z-score, replicate C |
| --- | --- | --- | --- | --- | --- |
| HMGB3P1 | 1 | 0.2 | -0.03 | 0.02 | 0.62 |
| LBHD1 | 1 | 0.21 | 0.29 | 0.42 | -0.08 |
| GRB14 | 1 | -0.1 | -0.13 | -0.13 | -0.03 |
| CD27 | 1 | -0.12 | -0.05 | -0.13 | -0.18 |
| SMIM32 | 1 | 0.61 | 0.86 | 0.36 | 0.61 |
| PIK3R4 | 1 | 0.31 | 0.61 | 0.41 | -0.09 |
| LOC399920 (retired record) | 1 | 0.73 | 0.69 | 0.52 | 0.99 |
| SAMD11 | 1 | 0.92 | 0.76 | 1.51 | 0.5 |
| RHOXF1 | 1 | -0.97 | -0.74 | -0.86 | -1.3 |
| C5 | 1 | -0.7 | -0.66 | -0.49 | -0.94 |
| OSR2 | 1 | 0.01 | -0.09 | 0.3 | -0.16 |
| KIF3B | 1 | -1.29 | -1.37 | -1.22 | -1.28 |
| CDKL4 | 1 | 0.14 | -0.04 | 0.07 | 0.4 |
| MOSMO | 1 | -1.76 | -1.7 | -2.03 | -1.55 |
| KRTAP12-1 | 1 | -0.25 | 0.08 | -0.55 | -0.27 |
| PRSS47P | 1 | 0.9 | 0.89 | 0.66 | 1.14 |
| LOC401068 (retired record) | 1 | -0.47 | -0.36 | -0.55 | -0.49 |
| RIMS2 | 1 | 0.87 | 0.89 | 0.98 | 0.74 |
| LRRC71 | 1 | -0.99 | -0.89 | -1.03 | -1.06 |
| FUNDC2P2 | 1 | -0.99 | -0.8 | -1.09 | -1.09 |
| LINC01138 | 1 | 1.94 | 2.29 | 1.93 | 1.59 |
| ARMH3 | 1 | -0.07 | -0.32 | -0.45 | 0.55 |
| LMAN1 | 1 | 1.87 | 2.09 | 2.12 | 1.39 |
| TUBB3 | 1 | 0.06 | 0.11 | -0.03 | 0.1 |
| VCX2 | 1 | -0.81 | -0.48 | -1.14 | -0.82 |
| ARMCX2 | 1 | 0.25 | 0.31 | 0 | 0.42 |
| CORO2B | 1 | -0.6 | -0.96 | -0.53 | -0.31 |
| XKR5 | 1 | -2.47 | -3.13 | -2.35 | -1.93 |
| LRRC63 | 1 | 0.79 | 0.88 | 0.53 | 0.96 |
| SPATA31G1 | 1 | 0.08 | 0.46 | 0.14 | -0.36 |
| SWAP70 | 1 | 0.09 | 0.01 | 0.24 | 0.03 |
| ATP13A1 | 1 | 0.44 | 0.5 | 0.44 | 0.38 |
| GRM5 | 1 | -0.62 | -0.62 | -0.55 | -0.69 |
| OR10AG1 | 1 | -0.35 | -0.14 | -0.85 | -0.06 |
| HOXB9 | 1 | 0.26 | 0.05 | 0.46 | 0.26 |
| SSBP3 | 1 | -1.11 | -1.27 | -1.07 | -0.98 |
| GARS1-DT | 1 | -0.12 | -0.16 | 0.05 | -0.24 |
| GARS1-DT | 2 | -0.14 | -0.36 | 0.13 | -0.18 |
| SCGB2A2 | 1 | 0.24 | 0.4 | 0.43 | -0.11 |
| CTDP1 | 1 | -0.11 | -0.26 | -0.03 | -0.04 |
| ANKHD1-EIF4EBP3 | 1 | -0.07 | 0.15 | -0.16 | -0.19 |
| WDR1 | 1 | 0.8 | 1.12 | 0.71 | 0.56 |
| EIF2AK3 | 1 | 0.75 | 0.61 | 0.95 | 0.68 |
| FAM171A1 | 1 | -2.08 | -2.22 | -1.95 | -2.06 |
| LOC400605 (retired record) | 1 | 0.16 | -0.17 | 0.19 | 0.45 |
| FSCN3 | 1 | 0.8 | 1.02 | 0.6 | 0.78 |
| BORCS7 | 1 | 1.64 | 1.82 | 1.76 | 1.35 |
| GAN | 1 | -0.69 | -0.24 | -0.82 | -1.03 |
| LINC00343 | 1 | -0.95 | -0.68 | -1.09 | -1.07 |
| APLP1 | 1 | 0.48 | 0.79 | 0.3 | 0.35 |
| DMRT3 | 1 | -1.39 | -1.48 | -1.29 | -1.39 |
| HSPB3 | 1 | 0.7 | 0.51 | 0.81 | 0.77 |
| LRRC4C | 1 | 0.16 | 0.03 | 0.05 | 0.39 |
| ZNF540 | 1 | 1.39 | 1.24 | 1.37 | 1.55 |
| PSMB11 | 1 | -0.39 | -0.44 | -0.44 | -0.31 |
| NPR2 | 1 | -0.12 | -0.04 | 0.16 | -0.47 |
| LMNA | 1 | 0.14 | 0.39 | 0.02 | 0.01 |

Ordered by “z-score, replicate C” (descending): 2 of the entries above.
| gene | reagent no. | mean z-score | z-score, replicate A | z-score, replicate B | z-score, replicate C |
| --- | --- | --- | --- | --- | --- |
| OSR2 | 1 | 0.01 | -0.09 | 0.3 | -0.16 |
| KIF3B | 1 | -1.29 | -1.37 | -1.22 | -1.28 |
